Anti-infective test results gathered from many reports (values: NIAID ChemDB through PubChem).

Shared fields: tests in culture

Blank or dashed fields: not listed here. Conditions beyond the fields shown may differ between rows. Percent inhibition refers to the dose given; in toxicity tests it is the harm to the cells. ECn: concentration that inhibits the pathogen or its effect by n%. MIC50, MIC90 and the like: level of inhibition, or share of isolates inhibited.

SMILES,tested at,method,agent,cell line,strain,endpoint,value
CCc1cn([C@@H]2O[C@H](CO)[C@@H](O)[C@@H]2O)c(=O)[nH]c1=O,1000 µg/mL,plaque count,Varicella zoster virus,HELF,HIRAI,inhibition,62%
Oc1cccc(C=Nc2ccccc2O)c1,,,Cryptococcus gattii,,29/10893,MIC99,4 µg/mL
O=S(=O)([O-])c1ccccc1S(=O)(=O)[O-],5 µg/mL,cytopathic effect,Herpes simplex virus,Human amnion AV3 cells,,inhibition,0%
Oc1ccccc1N=Cc1ccc(F)cc1,,,Cryptococcus gattii,,L 27/01,MIC99,64 µg/mL
CCOC(=O)/C=C/[C@H](C[C@@H]1CCNC1=O)NC(=O)[C@@H](CC(=O)[C@@H](NC(=O)c1cc(C)on1)C(C)C)Cc1ccc(F)cc1,,cytopathic effect / visual reading,Rhinovirus,OHIO HELA-I,Isolate 19,EC50,<0.01 µg/mL
CCOC(=O)c1c(C)nc(NCCCCNc2ccnc3cc(Cl)ccc23)nc1-c1ccccc1,,,Cryptococcus gattii,,L24/01,MIC99,8 µg/mL
O=S(=O)([O-])c1ccc(NS(=O)(=O)c2ccccc2)c2c(S(=O)(=O)[O-])cccc12,5 µg/mL,cytopathic effect,Adenovirus,Human amnion AV3 cells,TYPE 3,inhibition,10%
Nc1nc(=O)n([C@@H]2O[C@H](CO)[C@@H](O)[C@@H]2F)cc1I,0.001 µg/mL,plaque count,Varicella zoster virus,HELF,Asahikawa,inhibition,0%
CCOC(=O)c1c(C)nc(NCCCNc2ccnc3cc(Cl)ccc23)nc1-c1ccccc1,,,Cryptococcus gattii,,ATCC 32608,MIC99,16 µg/mL
O=c1[nH]c(=O)n([C@H]2C[C@H](O)[C@@H](CO)O2)cc1I,0.1 µg/mL,plaque count,Varicella zoster virus,HELF,HIRAI,inhibition,0%
C/C=C\[C@@H]1C[C@H](C(=O)O)N[C@H]1[C@@H](NC(C)=O)[C@](C)(CCC)OC,,plaque count,Influenza A virus,MDCK,H1N1 isolate C23C,EC50,≤1.5 µg/mL
Cc1nc(NCCCCNc2ccnc3cc(Cl)ccc23)nc(-c2ccccc2)c1C(=O)OC(C)C,,,Cryptococcus neoformans,,96806,MIC99,45.3 µg/mL
Nc1cccc(S(=O)(=O)O)c1,5 µg/mL,cytopathic effect,Adenovirus,Human embryonic lung cells,TYPE 3,inhibition,0%
C=CCc1ccc(OC)c(OC)c1,,turbidity,Candida tropicalis,,2854,MIC90,345 µg/mL
NCS(=O)(=O)O,5 µg/mL,cytopathic effect,Adenovirus,Human embryonic lung cells,TYPE 3,inhibition,0%
CC(=O)N[C@H]1[C@H]([C@H](O)[C@H](O)CO)OC(C(=O)O)=C[C@@H]1N=C(N)N,,,Influenza A virus,MDCK,H1N1 A/PR/8/34,EC50,0.42 µM
Cc1ccc(C(=O)Nc2ccc(S(=O)(=O)O)c3cc(S(=O)(=O)O)cc(S(=O)(=O)O)c23)cc1NC(=O)c1cccc(NC(=O)Nc2cccc(C(=O)Nc3cc(C(=O)Nc4ccc(S(=O)(=O)O)c5cc(S(=O)(=O)O)cc(S(=O)(=O)O)c45)ccc3C)c2)c1,10 µg/mL,cytopathic effect,Herpes simplex virus,Human conjunctiva cells,,inhibition,70%
O=c1[nH]c(=O)n([C@H]2C[C@H](O)[C@@H](CO)O2)cc1/C=C/Br,0.01 µg/mL,plaque count,Varicella zoster virus,HELF,OKA,inhibition,50%
Nc1ccc(S(=O)(=O)[O-])c2c(S(=O)(=O)[O-])ccc(O)c12,50 µg/mL,cytopathic effect,Herpes simplex virus,Human conjunctiva cells,,inhibition,0%
CCOC(=O)c1ccc(OCCC2CCN(c3ccc(C)nn3)CC2)cc1,,neutral red,Rhinovirus,KB,1505 (ICAM-1 receptor group 48),EC50,0.136 µM
O=S(=O)([O-])c1cc(S(=O)(=O)[O-])c2cc(NS(=O)(=O)c3ccccc3)ccc2c1,10 µg/mL,cytopathic effect,Adenovirus,Human embryonic lung cells,TYPE 3,inhibition,10%
O=c1[nH]c(=O)n([C@@H]2O[C@H](CO)[C@@H](O)[C@@H]2O)cc1/C=C/Br,0.001 µg/mL,plaque count,Varicella zoster virus,HELF,HIRAI,inhibition,97%

Again, the opening 2 rows:

SMILES,tested at,method,agent,cell line,strain,endpoint,value
CCc1cn([C@@H]2O[C@H](CO)[C@@H](O)[C@@H]2O)c(=O)[nH]c1=O,1000 µg/mL,plaque count,Varicella zoster virus,HELF,HIRAI,inhibition,62%
Oc1cccc(C=Nc2ccccc2O)c1,,,Cryptococcus gattii,,29/10893,MIC99,4 µg/mL